“And” between values parts separate entries of the source, which are not always exact repeats. Equal entries are not always repeated.
Legend:
[1] = test system: HCV genotype 1b replicon cells (Huh-luc); experiment: Antiviral combination studies with Compound 3, MacSynergy II; settings: for Interaction: in combination with Compound 3; for Antagonism Volume / Synergy Volume: in combination with Compound 3, mean ± standard deviation
[2] = test system: HCV genotype 1b replicon cells (Huh-luc); experiment: Antiviral combination study, MacSynergy II (Biological Example 1)

Molecule	Interaction [1]	Antagonism Volume [1] [nM^2]	Synergy Volume [1]	Interaction ([2]; in combination with Compound 2)	Antagonism Volume ([2]; in combination with Compound 2, mean ± standard deviation) [nM^2]
IFN-α	Minor synergy (Minor synergy if volumes are >25 and <50 nM^2)	0.15 ± 0.2	32 nM^2 and 32 ± 4.2 nM^2	–	–
Fc1ccccc1-c1nc2ccn(Cc3ccc(-c4ccc(C(F)(F)F)cc4C(F)(F)F)nn3)cc-2n1 [Compound 1, 5-((6-(2,4-bis(trifluoromethyl)phenyl)pyridazin-3-yl)methyl)-2-(2-fluorophenyl)-5H-imidazo[4,5-c]pyridine]	–	–	14.5 nM^2	Additive (Additive if volumes are >−50 nM^2 and ≤50 nM^2)	0.07 ± 0.07
NC(=O)c1ncn([C@@H]2O[C@H](CO)[C@@H](O)[C@H]2O)n1 [Ribavirin, 1-β-D-ribofuranosyl-1H-1,2,4-Triazole-3-carboxamide, reference compound]	Moderate synergy (Moderate synergy if volumes are >50 and ≤100 nM^2)	1.6 ± 2.3	54 ± 14.1 nM^2	–	–

From patent US10456414B2, “Methods for treating HCV” (priority 2011, dated 2019)
